{"source": "ChEMBL document CHEMBL6178023", "about": "(J Med Chem, 2025)", "tested_on": "Venezuelan equine encephalitis virus", "experiment": "Anti-viral activity against VEEV infected in human NHDF cells assessed as reduction in viral titer incubated with cells for 1 hr followed by viral infection for 2 hrs and subsequent replacement of fresh media with compound measured after 24 hrs post-infection by extracting viral supernatant from …", "conditions": "dose 0.01-100 µM, time 25.0 hrs", "data": [{"smiles": "O=C(N1CCC2(CC1)CC(CN1CCCCS1(=O)=O)CCO2)C1(c2ccccc2)CCCC1", "note": "(stereo unspecified)", "values": [{"measurement": "Activity", "value": "Dose-dependent-effect"}]}]}
